The source of these data is paper PMC6855506.

Data set [1] deals with T1, AphA (Vibrio cholerae) (UniProt Q9X399).
T1 sequence: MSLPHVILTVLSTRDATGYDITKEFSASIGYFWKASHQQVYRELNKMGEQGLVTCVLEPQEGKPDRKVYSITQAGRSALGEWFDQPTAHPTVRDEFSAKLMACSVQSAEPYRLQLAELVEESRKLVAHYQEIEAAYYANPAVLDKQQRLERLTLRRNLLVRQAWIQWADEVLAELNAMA
As to the kind of experiment: DNase I footprinting. The following applies: 40 mM Tris acetate pH 7.9, 50 mM KCl, 5 mM MgCl2, 500 uM DTT, 12.5 ug/ml herring sperm DNA, recombinant protein, protein details: C-terminal His6 (pET21a), label: 32P end label, probe letters rebuilt from the primers and the genome.

Data set [2] concerns the target CRP (Vibrio cholerae) (UniProt O34015). The data set is described as follows: DNase I footprinting. The note with it: 40 mM Tris acetate pH 7.9, 50 mM KCl, 5 mM MgCl2, 500 uM DTT, 12.5 ug/ml herring sperm DNA, recombinant protein, label: 32P end label, probe letters rebuilt from the primers and the genome.
In data set [3] the target is T1, AphA (Vibrio cholerae). The data set is described as follows: EMSA. The following applies: 1 uM AphA; 40 mM Tris acetate pH 7.9, 50 mM KCl, 5 mM MgCl2, 500 uM DTT, 12.5 ug/ml herring sperm DNA; EMSA 15 min at 37 C; recombinant protein; residues 1-179; protein details: C-terminal His6 (pET21a); label: 32P end label; probe letters rebuilt from the primers and the genome. (In general: In EMSA bound probe runs differently from free probe, usually more slowly.)

For data set [4], the system named is AphA + CRP. As to the kind of experiment: EMSA. The note with it: 1 uM AphA + 3 uM CRP, super-shifted complex; 40 mM Tris acetate pH 7.9, 50 mM KCl, 5 mM MgCl2, 500 uM DTT, 12.5 ug/ml herring sperm DNA; EMSA 15 min at 37 C; recombinant protein; protein details: C-terminal His6 (pET21a); label: 32P end label; probe letters rebuilt from the primers and the ….
Data set [5] addresses CRP (Vibrio cholerae) (UniProt O34015). As to the kind of experiment: EMSA. The following applies: 3 uM CRP; 40 mM Tris acetate pH 7.9, 50 mM KCl, 5 mM MgCl2, 500 uM DTT, 12.5 ug/ml herring sperm DNA; EMSA 15 min at 37 C; recombinant protein; label: 32P end label; probe letters rebuilt from the primers and the genome.
The test system of data set [6] is AphA + CRP. As to the kind of experiment: DNase I footprinting. The note with it: 3 uM CRP + 1-3 uM AphA, both sites protected; 40 mM Tris acetate pH 7.9, 50 mM KCl, 5 mM MgCl2, 500 uM DTT, 12.5 ug/ml herring sperm DNA; recombinant protein; protein details: C-terminal His6 (pET21a); label: 32P end label; probe letters rebuilt from the primers and the genome.

Construct, isoform or probe ends are uncertain for at least one entry.

On to “AATTCCATTTCCCAAAATCCTTTGCAAACCGTGAGAGGATGATGAATCAACTTGCATAGATGCTAACAGCTATCAAAAATGGCGTTGTTTTATAAAGAGAAGTAATGGAAATGA / AGCTTCATTTCCATTACTTCTCTTTATAAAACAACGCCATTTTTGATAGCTGTTAGCATCTATGCAAGTTGATTCATCATCCTCTCACGGTTTGCAAAGGATTTTGGGAAATGG [VC0857-VC0858 intergenic region]”, for which the binding result in data set [1] (0.25-2 uM AphA, 25 bp protected, residues …) is recorded as “binds”.
Regarding “AATTCTAGAGGAGCAACAAAAAATTGACGCTGTGATACTGGTCTCATAATCTGGCGCAAAAGTATTGCATCGATGTGAGATAAGTCCAGACTTATTTCTCTTCGTAAACTATCATTAGCTTCATAAAACAAGCA / AGCTTGCTTGTTTTATGAAGCTAATGATAGTTTACGAAGAGAAATAAGTCTGGACTTATCTCACATCGATGCAATACTTTTGCGCCAGATTATGAGACCAGTATCACAGCGTCAATTTTTTGTTGCTCCTCTAG [tfoX promoter wild type]”, in data set [2] (0.5 uM CRP, hypersensitive at -83 and -92), the binding result is given as “binds”.
On to “AGCTTCATGCTCACTATCACTACCGTTGCATTCTCTTGCTAATCATCAACATGCACATACTTTACCGTTTCGCTAGCTAGAGGTCAGTGATAACCATCAAACCCCTATCTTTTATCTTATGTGATTAAACGCAGCGTGCTACCG / AATTCGGTAGCACGCTGCGTTTAATCACATAAGATAAAAGATAGGGGTTTGATGGTTATCACTGACCTCTAGCTAGCGAAACGGTAAAGTATGTGCATGTTGATGATTAGCAAGAGAATGCAACGGTAGTGATAGTGAGCATGA [cqsS promoter wild type]”, for which the binding result in data set [3] is “binds”; in data set [4], “binds”; in data set [5] it was “binds”; in data set [1] (1-3 uM AphA, 37 bp footprint, cooperative, residues 1-179), “binds”; in data set [6] it was “binds”; in data set [2] (3 uM CRP), “binds”.
